Construct, isoform or probe ends are uncertain for at least one entry.
Key:
[1] = molecular target: RcsB (His6-RcsB) (Klebsiella pneumoniae CG43S3) (UniProt W1DMM9); test: competition with a labelled probe; details: 20 ul: 0.5 mM MgCl2, 0.1% Nonidet P-40, 0.05 mg/ml BSA, 50 ng/ul sheared salmon sperm DNA, 5% glycerol, 5% native PAGE, salt and temperature not stated, recombinant protein, protein details: His6 (pET30a), probe letters rebuilt from the primers and the genome
[2] = molecular target: RcsB (His6-RcsB) (Klebsiella pneumoniae CG43S3) (UniProt W1DMM9); test: EMSA; details: no acetyl phosphate, 20 ul: 0.5 mM MgCl2, 0.1% Nonidet P-40, 0.05 mg/ml BSA, 50 ng/ul sheared salmon sperm DNA, 5% glycerol, 5% native PAGE, salt and temperature not stated, recombinant protein, protein details: His6 (pET30a), probe letters rebuilt from the primers and the genome

AGATCTCAGATGTTTCCAAACCCATTTTCGCCAGAAGGCGCGTTTTTCTTTCGCCATTGTTATTATTTTACCTGCCACTTGTCGCCGGACGATATTCCGAGAACTCACCTTAATAAGAGCAGATTAATCGTTTGCATTTTTTTTAACAGCAGACCGCGCTGAAGCAAGTGAACGCCCGTTCCTACAGCTGTCATCCAGCTATGCAAATATATTCGTCTGGCTCAGCTCCACAATATTTCCCTGGCCCAAAACGATTTGTGTTACAATTACGCCTTATAACGGCATCGATAAAAATAACCCCCGCCGCACCTGCACCAGGCATCGCCCTTCTTTTTTCATATCAGGATTTACGCCCCCATGAATGCGATAATCGGATCCGTC (double strand) [PhdeB1 (unlabeled competitor)]
binding result ([1]; 300-fold unlabeled vs PhdeB1*): binds | binding result ([1]; excess unlabeled vs PyfdX*): binds

AGATCTCAGATGTTTCCAAACCCATTTTCGCCAGAAGGCGCGTTTTTCTTTCGCCATTGTTATTATTTTACCTGCCACTTGTCGCCGGACGATATTCCGAGAACTCACCTTAATAAGAGCAGATTAATCGTTTGCATTTTTTTTAACAGCAGACCGCGCTGAAGCAAGTGAACGCCCGTTCCTACAGCTGTCATCCAGCTATGCAAATATATTCGTCTGGCTCAGCTCCACAATATTTCCCTGGCCCAAAACGATTTGTGTTACAATTACGCCTTATAACGGCATCGATAAAAATAACCCCCGCCGCACCTGCACCAGGCATCGCCCTTCTTTTTTCATATCAGGATTTACGCCCCCATGAATGCGATAATCGGATCCGTC (double strand) [PhdeB1* (kvhAS-hdeB1 intergenic promoter)]
binding result ([2]; label: 5' biotin on hdeB1(-) strand): binds

GGATCCGCTATCTGTTGCCCATACCGGAGAGGTACTCATCATGGTTGCCAGCAGGCTCGCCAGAATGACTTTTTTCATCGTTGACTCCTGATTAAAATCGGTAAGCATCACCAAACGCAGCCAGCTTAAAAAATATCGTGGGCATTGAGAATCAGAGCCCGGAAGTAATATTGCGGGCCTGGTCTGACAGCTGTCAGACCAGGCGTATAAAGTGGCCTCGGCGCTCTTATTTACGCCTGCCGATCGCGCGGCCTACTATTTTCCTCAGACCTTTCTTTTGGCCCGCTGAATAAACCCTCACGCTTTTTATTCAGCGTCAGGCCGCCAACCGGGATCTGCGGAGCAATTAGATCT (double strand) [PyfdX (unlabeled competitor)]
binding result ([1]; 300-fold unlabeled vs PyfdX*): binds

GGATCCGCTATCTGTTGCCCATACCGGAGAGGTACTCATCATGGTTGCCAGCAGGCTCGCCAGAATGACTTTTTTCATCGTTGACTCCTGATTAAAATCGGTAAGCATCACCAAACGCAGCCAGCTTAAAAAATATCGTGGGCATTGAGAATCAGAGCCCGGAAGTAATATTGCGGGCCTGGTCTGACAGCTGTCAGACCAGGCGTATAAAGTGGCCTCGGCGCTCTTATTTACGCCTGCCGATCGCGCGGCCTACTATTTTCCTCAGACCTTTCTTTTGGCCCGCTGAATAAACCCTCACGCTTTTTATTCAGCGTCAGGCCGCCAACCGGGATCTGCGGAGCAATTAGATCT (double strand) [PyfdX* (yfdX-hdeDB intergenic promoter)]
binding result ([2]; label: 5' biotin on yfdX(+) strand): binds
